A mixed list of measured activities; the numbers were collected in NIAID ChemDB.

Common to all: growth or infection tests; agent: Mycobacterium tuberculosis

Percent inhibition refers to the dose given; in toxicity tests it is the harm to the cells. ECn: concentration that inhibits the pathogen or its effect by n%. Lines come from different laboratories, so protocols vary. An empty or dashed field is not shown. MIC bound comes from a single tested concentration.

structure,strain,cell line,read by,read-out,dose,result
CC1C=CC(C)N(C(N)=O)N1C(N)=O,H37Rv,,BACTEC,MIC bound,,>12.5 µg/mL
CC[C@H]1OC(=O)[C@H](C)[C@@H](O[C@H]2C[C@@](C)(OC)[C@@H](O)[C@H](C)O2)[C@H](C)[C@@H](O[C@@H]2O[C@H](C)C[C@H](N(C)C)[C@H]2O)[C@](C)(O)C[C@@H](C)CN(C)[C@H](C)[C@@H](O)[C@]1(C)O,ATCC 35823,,,MIC,,>8 µg/mL
O=C(O)CS,H37Rv,,,MIC,,>100 µg/mL
C=CCNC(=S)NC=C(C(N)=O)C(N)=O,H37Rv,,resazurin,MIC bound,,<6.25 µg/mL
O=C(CCl)Nc1c(Cl)cc(Cl)cc1Cl,H37Rv,,,MIC,,>100 µg/mL
NC[C@H]1O[C@H](O[C@H]2[C@H](O)[C@@H](O[C@H]3O[C@H](CO)[C@@H](O)[C@H](N)[C@H]3O)[C@H](N)C[C@@H]2N)[C@H](O)[C@@H](O)[C@@H]1O,TN3605 (W1),,,MIC,,>256 µg/mL
Cc1ccc(C)n1-c1ccc(S(=O)(=O)c2ccc(N)cc2)cc1,H37Rv,,,MIC,,50 µg/mL
CO[C@H]1/C=C/O[C@@]2(C)Oc3c(C)c(O)c4c(=O)c(c5oc6cc(N7CCN(C(C)C)CC7)cc(=O)c6nc5c4c3=C2O)NC(=O)/C(C)=C\C=C\[C@H](C)[C@H](O)[C@@H](C)[C@@H](O)[C@@H](C)[C@H](OC(C)=O)[C@@H]1C,2275 (rifampin-resistant),,,MIC,,0.4 µg/mL
CCC/C=C(/C=O)CC,H37Rv,,,MIC,,>100 µg/mL
c1ccc(CCCCNCCNCCc2ccccc2)cc1,,,,MIC,,50 µM
O=[N+]([O-])c1ccc(SSc2ccc([N+](=O)[O-])cn2)nc1,H37Rv,,resazurin,MIC bound,,>6.25 µg/mL
CC1CN(c2cc3c(cc2F)c(=O)c(C(=O)O)cn3-c2ccc(F)cc2F)CCN1,ATCC 35822,,,MBC,,4 µg/mL
Cc1cc(=O)c2c([nH]1)c1c(c3[nH]c(C)cc(=O)c32)Oc2ccccc2O1,H37Rv,VERO,,MIC,,0.8 µg/mL
CCOC(=O)C(NC(=O)c1ccccc1)C(=O)OCC,H37Rv,,,MIC,,>100 µg/mL
NC(=S)NNC(=S)S,H37Rv,,BACTEC,MIC,,≥12.5 µg/mL
CCOC(=O)Nc1cc(NCC(=O)c2ccc(C)c(C)c2)c([N+](=O)[O-])c(N)n1,H37Rv,,,EC50,,>12.5 µg/mL
CCCCC(CC)CN1CN(CC(CC)CCCC)CC(C)(NCCNCc2ccccc2F)C1,,,,MIC,,12.5 µM
O=C(/C=C/c1ccco1)c1ccc(Br)cc1O,,,,EC50,,>12.5 µg/mL
CO[C@H]1/C=C/O[C@@]2(C)Oc3c(C)c(O)c4c(O)c(c(/C=N/N5CCN(C)CC5)c(O)c4c3C2=O)NC(=O)/C(C)=C\C=C\[C@H](C)[C@H](O)[C@@H](C)[C@@H](O)[C@@H](C)[C@H](OC(C)=O)[C@@H]1C,TN792,,,MIC,,8 µg/mL
CC(=O)Oc1cccc2c(C(=O)O)cccc12,H37Rv,,,MIC,,50 µg/mL
CCC(C)(C)NCCNCC(c1ccccc1)c1ccccc1,,,,MIC,,12.5 µM
CCCCC(CC)CN1CN(CC(CC)CCCC)CC(C)(NCCNCC(c2ccccc2)c2ccccc2)C1,,,,MIC,,25 µM
O=C1CC(c2ccccc2)Oc2ccc(F)cc21,H37Rv,,,EC50,,>12.5 µg/mL
Cc1ccc2c(c1)OCC1(CC(C)(C)c3cc(C)ccc3O1)C2(C)C,H37Rv,,BACTEC,MIC bound,,>6.25 µg/mL
CC1(C)[C@H]2CC[C@@H](CNCCN[C@H]3C[C@H]4CC[C@]3(C)C4(C)C)[C@@H]1C2,,,,MIC,,3.13 µM
CCOC(=O)Nc1cc(Nc2ccc(Cl)cc2)c2nccnc2n1,H37Rv,,,EC50,,<12.5 µg/mL
O=C1OC(=O)c2c(I)cccc21,H37Rv,,,MIC,,>100 µg/mL
OCc1ccccc1Sc1ccccc1CNCCNCc1ccc(C(F)(F)F)cc1,,,,MIC,,25 µM
CCOC(=O)Nc1cc(N)c2ncc(-c3ccc(Cl)cc3)nc2n1,H37Rv,,,EC50,,>12.5 µg/mL
NNC(=O)c1ccccc1NC(=O)c1ccccc1,H37Rv,,,MIC,,>100 µg/mL
Nc1nc2c(c(-c3ccccc3Cl)n1)COC/C2=C/c1ccccc1Cl,H37Rv,,BACTEC,inhibition,12.5 µg/mL,92%
COc1ccc(C2CC(=O)c3c(OC)cc(OC)c(I)c3O2)cc1,H37Rv,,,EC50,,>12.5 µg/mL
CCC1CCCCN1CCNC/C=C(\C)CCC=C(C)C,,,,MIC,,12.5 µM
CCCCCCCCCCCCS(=O)(=O)c1ccc(-n2c(C)ccc2C)cc1,H37Rv,,,MIC,,>100 µg/mL
CO[C@H]1/C=C/O[C@@]2(C)Oc3c(C)c(O)c4c(O)c(c5c(c4c3C2=O)NC2(CCN(CC(C)C)CC2)N=5)=NC(=O)/C(C)=C\C=C\[C@H](C)[C@H](O)[C@@H](C)[C@@H](O)[C@@H](C)[C@H](OC(C)=O)[C@@H]1C,2847 (rifampin-sensitive),,,MBC,,0.05 µg/mL
[O-][n+]1ccccc1-c1ccccc1,H37Rv,,,MIC,,>100 µg/mL
CCOC(=O)C(=O)Cc1nc2ccccc2[nH]c1=O,H37Rv,,resazurin,MIC bound,,>6.25 µg/mL
CCN(CC)CCCCNc1ccnc(N)n1.Cl,H37Rv,,,MIC,,50 µg/mL
COC1OC2COC1(OC)C1OC(C)(C)OC21,H37Rv,,BACTEC,inhibition,12.5 µg/mL,0%
CCCCCCCCCCCNCCNCC(C)c1ccccc1,,,,MIC,,6.25 µM
CCOc1ccccc1CNCCNC1Cc2ccccc2C1,,,,MIC,,50 µM
O=[N+]([O-])c1ccc(OCC(O)COc2ccc([N+](=O)[O-])cc2)cc1,H37Rv,,,MIC,,>100 µg/mL
Cc1ccsc1C(=S)Nc1ccc(Cl)c(C(=O)OC(C(C)C)C(C)C)c1,H37Rv,,BACTEC,MIC bound,,>12.5 µg/mL
CCOC(=O)Nc1cc(SC(=N)N)c([N+](=O)[O-])c(N)n1,H37Rv,,,EC50,,<12.5 µg/mL
Cc1cc2c(=O)cc(-c3ccncc3)oc2c(C(N)=O)c1C,H37Rv,,resazurin,MIC bound,,>6.25 µg/mL
COc1ccc(C2CC(=O)c3c(OC)cc(OC)cc3O2)cc1,H37Rv,,,inhibition,12.5 µg/mL,12%
CCOc1ccccc1Nc1cc(Cl)nc(N)n1,H37Rv,,BACTEC,inhibition,12.5 µg/mL,55%
CC(C)c1ccc2c(c1)CC[C@H]1[C@](C)(CNCCNCc3ccc(F)cc3)CCC[C@]21C,,,,MIC,,50 µM
c1ccc(CCCCNCCNCc2ccc3c(c2)OCO3)cc1,,,,MIC,,25 µM
C=C1C(=O)O[C@@H]2CCN3CC=C(COC(=O)[C@@](C)(O)[C@]4(CO4)[C@@H]1C)[C@H]23,H37Rv,,BACTEC,MIC,,≥12.5 µg/mL
CC(C)c1ccc(C(=O)O)cc1N=Nc1ccc(O)cc1O,H37Rv,,,MIC,,>100 µg/mL
CCOC(=O)Nc1cc2c(c(N)n1)N=C(c1ccccc1)[C@@H](CC)N2,H37Rv,,,inhibition,12.5 µg/mL,0%
Fc1ccc(CNCCN(CCc2ccccc2)Cc2ccccc2)cc1,,,,MIC,,50 µM
Cc1ccc(NN(NC(=O)OC(C)C)C(=O)OC(C)C)cc1,H37Rv,,BACTEC,inhibition,12.5 µg/mL,17%
Cc1cc(C)c(CNC(=O)c2ccccc2)c(C)c1,H37Rv,,,MIC,,100 µg/mL
CC(=O)Oc1ccc([C@@H]2CC(=O)c3c(cc(OC(C)=O)c(-c4c(OC(C)=O)cc(OC(C)=O)c5c4O[C@H](c4ccc(OC(C)=O)cc4)CC5=O)c3OC(C)=O)O2)cc1,H37Rv,,,EC50,,>12.5 µg/mL
CC(C)N=c1cc2n(-c3ccc(Cl)cc3)c3ccccc3nc-2cc1Nc1ccc(Cl)cc1,MDR12,,broth dilution / resazurin,MIC,,2 µg/mL
Cc1ccc(CNCCNC(C)Cc2c[nH]c3ccccc23)cc1,,,,MIC,,50 µM
CCN(CC)c1ccc2nc3c4ccccc4c(=NC(=O)c4ccccc4-c4c5ccc(N(CC)CC)cc5[o+]c5cc(N(CC)CC)ccc45)cc-3oc2c1.[Cl-],H37Rv,VERO,,MIC,,1.6 µg/mL
C1CCCC(NCCNCC23CC4CC(CC(C4)C2)C3)CCC1,,,,MIC,,12.5 µM
Clc1nc2ccccc2s1,H37Rv,,,MIC,,>100 µg/mL
COc1cc(O)c2c(O)c3c(=O)cc(C)oc3cc2c1,H37Rv,,BACTEC,MIC,,≥12.5 µg/mL
CCOC(=O)Nc1cc2c(c(N)n1)N=C(c1cc(OC)c(OC)c(OC)c1)CO2,H37Rv,,,EC50,,>12.5 µg/mL
CC(=O)O[C@H]1CC2C(C)(C)OC3CC(=O)OCC32C2CC[C@@]3(C)C(=CC[C@@H]3c3ccoc3)[C@]21C,H37Rv,,BACTEC,MIC bound,,>12.5 µg/mL
O=C(O)c1ccc(S(=O)(=O)O)cc1O,H37Rv,,,MIC,,>100 µg/mL
CCCCCCCCCCCCCCCCCCNCCNC12CC3CC(CC(C3)C1)C2,,,,MIC,,25 µM
Oc1oc(-c2ccccc2)nc1/C=C1/C=Nc2ccccc21,H37Rv,,,MIC,,>100 µg/mL
O=C(N/N=C/c1ccco1)C(=O)N/N=C/c1ccco1,H37Rv,,BACTEC,MIC bound,,>12.5 µg/mL
CC[C@H]1OC(=O)[C@H](C)[C@@H](O[C@H]2C[C@@](C)(OC)[C@@H](O)[C@H](C)O2)[C@H](C)[C@@H](O[C@@H]2O[C@H](C)C[C@H](N(C)C)[C@H]2O)[C@](C)(OC)C[C@@H](C)C(=O)[C@H](C)[C@@H](O)[C@]1(C)O,ATCC 35822,,,MIC,,>8 µg/mL
C/C=C/C(=O)OC,H37Rv,,,MIC,,>100 µg/mL
O=C1C2=C(c3ccccc31)C(c1ccccc1)NC(=S)N2,H37Rv,,BACTEC,MIC bound,,>12.5 µg/mL
CCOC(=O)c1ccc([N+](=O)[O-])cc1O,H37Rv,,,MIC,,100 µg/mL
CC(C)[C@@]1(NC(=O)[C@@H]2C=C3c4cccc5[nH]cc(c45)C[C@H]3N(C)C2)O[C@@]2(O)[C@@H]3CCCN3C(=O)[C@H](Cc3ccccc3)N2C1=O,H37Rv,,BACTEC,MIC,,≥12.8 µg/mL
O=C1CC(c2ccccc2O)Oc2ccccc21,,,,inhibition,12.5 µg/mL,1%
Oc1ccccc1Cl,H37Rv,,,MIC,,>100 µg/mL

The first 8 rows once more:

structure	strain	cell line	read by	read-out	dose	result
CC1C=CC(C)N(C(N)=O)N1C(N)=O	H37Rv		BACTEC	MIC bound		>12.5 µg/mL
CC[C@H]1OC(=O)[C@H](C)[C@@H](O[C@H]2C[C@@](C)(OC)[C@@H](O)[C@H](C)O2)[C@H](C)[C@@H](O[C@@H]2O[C@H](C)C[C@H](N(C)C)[C@H]2O)[C@](C)(O)C[C@@H](C)CN(C)[C@H](C)[C@@H](O)[C@]1(C)O	ATCC 35823			MIC		>8 µg/mL
O=C(O)CS	H37Rv			MIC		>100 µg/mL
C=CCNC(=S)NC=C(C(N)=O)C(N)=O	H37Rv		resazurin	MIC bound		<6.25 µg/mL
O=C(CCl)Nc1c(Cl)cc(Cl)cc1Cl	H37Rv			MIC		>100 µg/mL
NC[C@H]1O[C@H](O[C@H]2[C@H](O)[C@@H](O[C@H]3O[C@H](CO)[C@@H](O)[C@H](N)[C@H]3O)[C@H](N)C[C@@H]2N)[C@H](O)[C@@H](O)[C@@H]1O	TN3605 (W1)			MIC		>256 µg/mL
Cc1ccc(C)n1-c1ccc(S(=O)(=O)c2ccc(N)cc2)cc1	H37Rv			MIC		50 µg/mL
CO[C@H]1/C=C/O[C@@]2(C)Oc3c(C)c(O)c4c(=O)c(c5oc6cc(N7CCN(C(C)C)CC7)cc(=O)c6nc5c4c3=C2O)NC(=O)/C(C)=C\C=C\[C@H](C)[C@H](O)[C@@H](C)[C@@H](O)[C@@H](C)[C@H](OC(C)=O)[C@@H]1C	2275 (rifampin-resistant)			MIC		0.4 µg/mL